{"source": "PubChem BioAssay AID540254", "about": "(Southern Research Specialized Biocontainment Screening …, 2011)", "note": "Only a part is listed here, and it is no random draw. Potency and affinity values are given separately. The source made the active and inactive calls. No rule for the calls is given here."}
{"test": "antiviral activity against H1N1 influenza, dose response, cell-based, strain KY180 (AID 540254)", "settings": "H1N1 KY180 influenza antiviral cell-based screen; at 40 µM (top of the series)"}
{"smiles": "CCC(C)N(CC(C)C)C(=S)SC(NC(C)=O)C(Cl)(Cl)Cl", "note": "(configuration not stated)", "inhibition": "inactive: -1.01%"}
{"smiles": "COc1cc(C(=O)NCC2(N3CCOCC3)CCCCC2)cc(Cl)c1OC(C)C", "inhibition": "inactive: -3.8%"}
